Data: publication PMC7985367, “Crystal structure of RahU, an aegerolysin protein from the human pathogen Pseudomonas aeruginosa, and its interaction with membrane ceramide phosphorylethanolamine” (Scientific Reports, 2021)

Target: T1, RahU (RahU-His6, membrane interaction studies) (Pseudomonas aeruginosa, UniProt Q9I710)
T1 construct: gene PA0122
Conditions: 4 uM RahU, 20 mM Tris versus 10 mM Hepes, pH 7.4; equimolar CPE/POPC/cholesterol LUVs; direct competition or allosteric site undecided

NC(CO)(CO)CO [Tris]
SPR and co-sedimentation, interference with binding to CPE vesicles: Tris indeed interferes with RahU binding to the membranes
